A mixed list of measured activities; the numbers were collected in NIAID ChemDB.

Shared fields: growth or infection tests; organism: Staphylococcus aureus

Neighbouring rows are from separate reports. MIC50, MIC90 and the like: level of inhibition, or share of isolates inhibited. Zone: diameter of growth inhibition. a–b is a range or a potency band. ECn is the concentration giving n% inhibition of infection, replication or growth.

{"smiles": "NC1CCN(c2c(F)cc3c(=O)c(C(=O)O)cn(C4CC4)c3c2Cl)C1", "strain": "10 strains (oxacillin-resistant)", "measure": "MIC90", "value": "1 µg/mL"}
{"smiles": "CC(=O)NC[C@H]1CN(c2ccc(N3CCN(C(=O)CO)CC3)c(F)c2)C(=O)O1", "strain": "Oxacillin-susceptible", "measure": "MIC50", "value": "1–4 µg/mL"}
{"smiles": "C[C@H]1COc2c(N3CCN(C)CC3)c(F)cc3c(=O)c(C(=O)O)cn1c23", "strain": "25 strains (methicillin-susceptible)", "measure": "MIC90", "value": "0.5 µg/mL"}
{"smiles": "NC1CCN(c2c(F)cc3c(=O)c(C(=O)O)cn(C4CC4)c3c2F)C1", "strain": "NCTC10649", "measure": "MIC", "value": "0.1 µg/mL"}
{"smiles": "COc1cc2oc(=O)ccc2cc1CC(O)C(C)(C)O", "method": "agar diffusion", "measure": "zone", "tested at": "250 µg/disc", "value": "10 mm"}
{"smiles": "CN1CCN(c2c(F)cc3c(=O)c(C(=O)O)cn4c3c2SCC4)CC1", "strain": "30 strains", "measure": "MIC50", "value": "2 µg/mL"}
{"smiles": "COc1c(N2CCNC(C)C2)c(F)cc2c(=O)c(C(=O)O)cn(C3CC3)c12", "strain": "24 strains (ofloxacin-susceptible)", "measure": "MIC90", "value": "0.25 µg/mL"}
{"smiles": "CN(C)[C@@H]1C(=O)C(C(N)=O)=C(O)[C@@]2(O)C(=O)C3=C(O)c4c(O)c(NC(=O)CNc5ccccc5)cc(F)c4C[C@H]3C[C@@H]12", "strain": "158-tet", "method": "agar diffusion", "measure": "EC50", "value": "2 µg/mL"}
{"smiles": "CCCCCCCCCC(=O)N[C@H]1[C@H](Oc2c3cc4cc2Oc2ccc(cc2Cl)[C@@H](O[C@@H]2O[C@H](CO)[C@@H](O)[C@H](O)[C@H]2NC(C)=O)[C@@H]2NC(=O)[C@H](NC(=O)[C@@H]4NC(=O)[C@H]4NC(=O)[C@@H](Cc5ccc(c(Cl)c5)O3)NC(=O)[C@H](N)c3ccc(O)c(c3)Oc3cc(O)cc4c3)c3ccc(O)c(c3)-c3c(O[C@H]4O[C@H](CO)[C@@H](O)[C@H](O)[C@@H]4O)cc(O)cc3[C@H](C(=O)O)NC2=O)O[C@H](CO)[C@@H](O)[C@@H]1O", "strain": "25 strains (methicillin-susceptible)", "measure": "MIC50", "value": "0.5 µg/mL"}
{"smiles": "CCCN1CCN(c2cc(=O)c3nc4c(oc3c2)c2c(=O)c3c(O)c(C)c5c(c34)=C(O)[C@@](C)(O/C=C/[C@H](OC)[C@@H](C)[C@@H](OC(C)=O)[C@H](C)[C@H](O)[C@H](C)[C@@H](O)[C@@H](C)/C=C/C=C(/C)C(=O)N2)O5)CC1", "strain": "ATCC 29213", "measure": "MIC", "value": "0.0039 µg/mL"}
{"smiles": "COC[C@H](N)C1CCN(c2c(F)cn3c(=O)c(C(=O)O)cc(C4CC4)c3c2C)C1", "strain": "NCTC10649", "measure": "MIC", "value": "0.002 µg/mL"}
{"smiles": "CN1CCN(c2c(F)cc3c(=O)c(C(=O)O)cn4c3c2SCC4CF)CC1", "strain": "30 strains", "measure": "MIC90", "value": "1 µg/mL"}
{"smiles": "CN(C)c1ccc(O)c2c1C[C@H]1C[C@H]3[C@H](N(C)C)C(=O)C(C(N)=O)=C(O)[C@@]3(O)C(=O)C1=C2O", "strain": "25 strains (ofloxacin-resistant)", "measure": "MIC50", "value": "8 µg/mL"}
{"smiles": "CCC[C@H](N)C1CCN(c2c(F)cn3c(=O)c(C(=O)O)cc(C4CC4)c3c2C)C1", "strain": "1775 (ciprofloxacin-resistant)", "measure": "MIC", "value": "0.05 µg/mL"}
{"smiles": "C[C@@H]1CN(c2c(F)c(N)c3c(=O)c(C(=O)O)cn(C4CC4)c3c2F)C[C@H](C)N1", "strain": "25 strains (methicillin-susceptible)", "measure": "MIC90", "value": "0.25 µg/mL"}
{"smiles": "C[C@H]1C[C@H](N)CN1c1cc2c(cc1F)c(=O)c(C(=O)O)cn2-c1ccc(F)cc1F", "strain": "1775 (ciprofloxacin-resistant)", "measure": "MIC", "value": "8 µg/mL"}
{"smiles": "CO[C@H]1/C=C/O[C@@]2(C)Oc3c(C)c(O)c4c(=O)c(c5oc6cc(N7CCN(CC(C)C)CC7)cc(=O)c6nc5c4c3=C2O)NC(=O)/C(C)=C\\C=C\\[C@H](C)[C@H](O)[C@@H](C)[C@@H](O)[C@@H](C)[C@H](OC(C)=O)[C@@H]1C", "strain": "20 strains (methicillin-resistant)", "measure": "MIC50", "value": "0.0078 µg/mL"}
{"smiles": "CO/N=C(/C(=O)N[C@@H]1C(=O)N2C(C(=O)O)=C(COC(N)=O)CS[C@H]12)c1ccco1", "strain": "30 strains", "measure": "MIC90", "value": "2 µg/mL"}
{"smiles": "Cc1c(N2CCC[C@@H](N)C2)c(F)cn2c(=O)c(C(=O)O)cc(C3CC3)c12", "strain": "1775 (ciprofloxacin-resistant)", "measure": "MIC", "value": "1.56 µg/mL"}